# Measured values reported in the supplement of paper PMC12637763.
# The list shows a part of the results. Env chains of viruses from a treatment-interruption trial, translated from the printed DNA. IC50 / IC80 of two broadly neutralizing antibodies; lower = more sensitive virus; >50 µg/ml means not reached and <0.001 µg/ml is below the lowest dose. No active / inactive call.
# B1: HIV-1 Env, rebound clone, placebo arm (protein)
# chain: MIVMGMKRNWQQWWRGGILLLGMLMMICSAEDNAWVTVYYGVPVWREANVTLFCASDAKAYDTEVHNVWATHACVPTDPSPQEIKLENVTENFNMWKNDMVEQMHEDIISLWDQSLKPCVKLTPLCVTLNCTDYLGSNATNSTSGNNGTISNNITIEDSEKGEIKNCSFNVTTGIRDKMNKEYALLYKTDLVSIDNDNTSYRLISCNTSVITQACPKVTFEPIPIHYCAPAGFAILKCKDKKFNGTGPCKNVSTVQCTHGIRPVVSTQLLLNGSLAEEDVVIRSANFTNNAKVIIVQLNETVEINCTRPNNNTRKGINIGPGRAWYTIKDIVGDIRQAHCNISRPKWNRALEKIVEKLREQFGVNKTIVFNQSSGGDPEIVMHHFNCQGEFFYCNTTRLFNTRWNGTWNDTWENYTAGQGNNETITLPCRIRQIVNLWQEVGKAMYAPPIRGYINCSSNITGLLLVRDGGIKNSTNDTDNNTEIFRPGGGDMRDNWRSELYKYKVVQVEPVGIAPTRAKRRVVQREKRAVTLGAMFLGFLGTAGSTMGAASLTLTVQVRQLLSGIVQQQNNLLRAIEAQQHLLQLTVWGIKQLQARVLAVERYLRDQQILGIWGCSGKLICTTAVPWNTSWSNKSVDHIWGNMTWMQWEREIENYTGVIYKLLEESQNQQEKNEQDLLELDKWASLWTWFDITHWLWYIRLFIMIVGGLIGLRIVFAVFSLVNRVRQGYSPLSFQTHLPAPRGPDRPEGIEEEGGKPDRGRSVRLVNGFLALIWDDLRSLCLFSYHRLRDLLLIVTRIVELLGRRGWEAIKYLWNLLQYWSQELKNSAVSLLNAFAIAVAEGTDRVIEIIQGAFRAIIHIPRRIRQGLERSLL
# B2: HIV-1 Env, rebound clone, placebo arm (protein)
# chain: MIVMGMKRNWQQWWRGGILLLGMLMMICSAEDNAWVTVYYGVPVWREANVTLFCASDAKAYDTEVHNVWATHACVPTDPSPQEIKLENVTENFNMWKNDMVEQMHEDIISLWDQSLKPCVKLTPLCVTLNCTDYLGSNATNSTSGNNGTISNNITIEDSEKGEIKNCSFNVTTGIRDKMNKEYALLYKTDLVSIDNDNTSYRLISCNTSVITQACPKVTFEPIPIHYCAPAGFAILKCKDKKFNGTGPCKNVSTVQCTHGIRPVVSTQLLLNGSLAEEDVVIRSANFTNNAKVIIVQLNETVEINCTRPNNNTRKGINIGPGRAWYTIKDIVGDIRQAHCNISRPKWNRALEKIVEKLREQFGVNKTIVFNQSSGGDPEIVMHHFNCQGEFFYCNTTGLFNTRWNGTWNDTWENYTAGQDNNETITLPCRIRQIVNLWQEVGKAMYAPPIRGYINCSSNITGLLLVRDGGIKNSTNDTDNNTEIFRPGGGDMRDNWRSELYKYKVVQVEPVGIAPTRAKRRVVQREKRAVTLGAMFLGFLGTAGSTMGAASLTLTVQVRQLLSGIVQQQNNLLRAIEAQQHLLQLTVWGIKQLQARVLAVERYLRDQQILGIWGCSGKLICTTAVPWNTSWSNKSVDHIWGNMTWMQWEREIENYTGVIYKLLEESQNQQEKNEQDLLELDKWASLWTWFDITHWLWYIRLFIMIVGGLIGLRIVFAVFSLVNRVRQGYSPLSFQTHLPAPRGPDRPEGIEEEGGEPDRGRSVRLVNGFLALIWDDLRSLCLFSYHRLRDLLLIVTRIVELLGRRGWEAIKYLWNLLQYWSQELKNSAVSLLNAFAIAVAEGTDRVIEIIQGAFRAIIHIPRRIRQGLERSLL
# B3: HIV-1 Env, rebound clone, placebo arm (protein)
# chain: MIVMGMKRNWQQWWRGGILLLGMLMMICSAEDNAWVTVYYGVPVWREANVTLFCASDAKAYDTEVHNVWATHACVPTDPSPQEIKLENVTENFNMWKNDMVEQMHEDIISLWDQSLKPCVKLTPLCVTLNCTDYLGSNATNSTSGNNGTISNNITIEDSEKGEIKNCSFNVTTGIRDKMNKEYALLYKTDLVSIDNDNTSYRLISCNTSVITQACPKVTFEPIPIHYCAPAGFAILKCKDKKFNGTGPCKNVSTVQCTHGIRPVVSTQLLLNGSLAEEDVVIRSANFTNNAKVIIVQLNETVEINCTRPNNNTRKGINIGPGRAWYTIKDIVGDIRQAHCNISRPKWNRALEKIVEKLREQFGVNKTIVFNQSSGGDPEIVMHHFNCQGEFFYCNTTRLFNTRWNGTWNDTWENYTAGQGNNETITLPCRIRQIVNLWQEVGKAMYAPPIRGYINCSSNITGLLLVRDGGIKNSTNDTDNNTEIFRPGGGDMRDNWRSELYKYKVVQVEPVGIAPTRAKRRVVQREKRAVTLGAMFLGFLGTAGSTMGAASLTLTVQVRQLLSGIVQQQNNLLRAIEAQQHLLQLTVWGIKQLQARVLAVERYLRDQQILGIWGCSGKLICTTAVPWNTSWSNKSVDHTWGNMTWMQWEREIENYTGVIYKLLEESQNQQEKNEQDLLELDKWASLWTWFDITHWLWYIRLFIMIVGGLIGLRIVFAVFSLVNRVRQGYSPLSFQTHLPAPRGPDRPEGIEEEGGEPDRGRSVRLVNGFLALIWDDLRSLCLFSYHRLRDLLLIVTRIVELLGRRGWEAIKYLWNLLQYWSQELKNSAVSLLNAFAIAVAEGTDRVIEIIQGAFRAIIHIPRRIRQGLERSLL
# Molecular target: antibody 10-1074
# Assay: neutralization IC50; higher = virus less sensitive to the antibody
# Protocol: (§1)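 Pseudovirus bearing the Env chain mixed with antibody, from 50 µg/ml in fivefold dilutions, on TZM-bl reporter cells, in duplicate.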
row,Binder,neutralization IC50 [µg/mL]
1,B1,0.262
2,B2,0.164
3,B3,0.18

# Molecular target: antibody 3BNC117
# Assay: as above
# Protocol: as §1
row,Binder,neutralization IC50 [µg/mL]
1,B1,0.44
2,B2,0.312
3,B3,0.39

# Molecular target: antibody 10-1074
# Assay: neutralization IC80; higher = virus less sensitive to the antibody
# Protocol: as §1
row,Binder,neutralization IC80 [µg/mL]
1,B1,0.916
2,B2,0.607
3,B3,0.776

# Molecular target: antibody 3BNC117
# Assay: as above
# Protocol: as §1
row,Binder,neutralization IC80 [µg/mL]
1,B1,1.46
2,B2,1.09
3,B3,1.27
